Test: Inhibitory activity against TIBO-resistant HIV-1 RT Nucleic Acid polymerase; IA=inactive; call rule not given here

## CCCc1cc(=O)oc2c3c(c4c(c12)OC(C)(C)C=C4)O[C@@H](C)[C@H](C)[C@@H]3O [COSTATOLIDE]
  IC50: Not Active

— ChEMBL document CHEMBL1129527, “Synthesis, chromatographic resolution, and anti-human immunodeficiency virus activity of (+/-)-calanolide A and its enantiomers” (J Med Chem, 1996)
